The values that follow come from PubChem BioAssay AID1533 (PCMD, 2009).

By UniProt entry, the sequences of proteins in these tests, tags left out.
UniProt P9WH09, whole entry, looked up: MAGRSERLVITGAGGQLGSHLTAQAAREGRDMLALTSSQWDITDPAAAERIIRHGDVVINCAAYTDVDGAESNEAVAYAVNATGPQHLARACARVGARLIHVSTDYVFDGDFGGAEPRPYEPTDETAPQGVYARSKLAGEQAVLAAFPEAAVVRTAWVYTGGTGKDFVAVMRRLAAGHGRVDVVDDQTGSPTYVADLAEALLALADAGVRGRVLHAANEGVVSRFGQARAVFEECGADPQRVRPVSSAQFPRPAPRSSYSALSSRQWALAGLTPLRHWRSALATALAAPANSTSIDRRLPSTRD
UniProt P9WH11, whole entry, looked up: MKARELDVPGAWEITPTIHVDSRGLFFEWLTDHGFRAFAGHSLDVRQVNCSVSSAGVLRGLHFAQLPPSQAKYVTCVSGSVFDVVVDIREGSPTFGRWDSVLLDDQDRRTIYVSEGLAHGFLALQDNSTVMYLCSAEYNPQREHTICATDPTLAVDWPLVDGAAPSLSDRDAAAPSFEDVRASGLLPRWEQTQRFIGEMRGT

This is a selection; strong and weak results do not stand in their true shares. Calls of active or inactive are those of the source. Rule as the data show it: active = inhibition mostly above about 34% (no sharp cut-off); inconclusive = no clear call, values can overlap the other calls; inactive = mostly below about 22%.

The assay concerns the target dTDP-4-dehydrorhamnose reductase (Mycobacterium tuberculosis (strain ATCC 25618 / H37Rv)) + dTDP-4-dehydrorhamnose 3,5-epimerase (Mycobacterium tuberculosis (strain ATCC 25618 / H37Rv)) (UniProt P9WH09+P9WH11). The assay is described as follows: M. tuberculosis RmlC/RmlD coupled enzyme inhibitors, primary screen, biochemical, compound mixtures, 384-well, from 1536-well plates (AID 1533). The note with it: RmlC+RmlD coupled enzyme assay, percent inhibition; primary screen in compound mixtures; at 3.6 µM; stronger effect = higher value.
On to `O=[N+]([O-])c1ccc(OP2(=O)COCCO2)cc1` (stereo unspecified), for which the inhibition (in general, the relative decrease from the control value, in per cent) is inactive: 4.11%.
